Reference: publication PMC6291738, “Identification of novel HIV-1-derived HLA-E-binding peptides” (Immunology Letters, 2018)
No end group written: not given here.

Sequences of proteins named here, by UniProt entry; tags and fusion partners are left off. Residues count along the entry.
UniProt P13747, 22-358 limits assumed: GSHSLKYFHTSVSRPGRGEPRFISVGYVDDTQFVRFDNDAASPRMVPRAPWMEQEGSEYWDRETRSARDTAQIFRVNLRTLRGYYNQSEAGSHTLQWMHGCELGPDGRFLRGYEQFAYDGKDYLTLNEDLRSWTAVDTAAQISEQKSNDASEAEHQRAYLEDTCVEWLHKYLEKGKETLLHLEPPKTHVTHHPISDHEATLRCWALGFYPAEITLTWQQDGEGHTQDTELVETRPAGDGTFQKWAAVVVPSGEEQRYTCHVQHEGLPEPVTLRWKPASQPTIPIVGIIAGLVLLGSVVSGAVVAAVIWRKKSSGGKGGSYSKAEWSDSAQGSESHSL
UniProt P61769, 21-119 partner limits assumed: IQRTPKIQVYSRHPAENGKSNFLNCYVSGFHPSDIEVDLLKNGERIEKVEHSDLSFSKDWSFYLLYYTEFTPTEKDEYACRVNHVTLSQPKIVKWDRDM

Biological target: HLA-E*01:03 (Homo sapiens, UniProt P13747)
Assay: HLA-E*01:03 surface stabilization by 9-mer peptides on LCL721.221 cells overexpressing HLA-E*01:03
Settings: LCL721.221 cells overexpressing HLA-E*01:03 pulsed with 9-mer peptide; serum-free AIM V; flow cytometry; mean ± SD (n = 3); no peptide 3380 ± 10

PEIVIYQYM [PM9]
HLA-E MFI, LCL721.221/HLA-E*01:03 assay: over 4000
